Measurements reported in PubChem BioAssay AID624099 (ICCB-Longwood, 2012).
This is a random part of about 21,000 reagents tested. In the full data, 497 (2.4%) are marked active. 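Higher z means weaker E2 silencing; only reporter increases were scored, and knock-downs that hurt cell survival may mask genuine repressor factors.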 Reagents against one gene are numbered here.

- Assay: 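Host factors E2 relies on to silence an HPV18 LCR reporter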 (primary screen)
- System: human C33A cervical carcinoma cells (HPV-negative) stably expressing BPV1 E2 and an HPV18 LCR luciferase reporter
- Reagents: siRNA pool against human genes, 40 nM
- Duration: 72 h
- Detection: 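Per-well luciferase luminescence, z-scored on each plate against the plate mean and SD with control wells left out, then averaged across three replicate plates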
- Reading the numbers: mean z-score and z-score: higher = stronger reporter signal, weaker E2 silencing
- Call rule: 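Hit if mean z-score reaches 2 and two or more of three replicate z-scores also reach 2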

CRKL: mean z-score = 1.18; z-score, replicate A = 1.71; z-score, replicate B = 0.69; z-score, replicate C = 1.14; Call = inactive
EGFEM1P #1: mean z-score = 0.49; z-score, replicate A = 0.58; z-score, replicate B = 0.47; z-score, replicate C = 0.42; Call = inactive
EGFEM1P #2: mean z-score = -0.08; z-score, replicate A = -0.06; z-score, replicate B = -0.07; z-score, replicate C = -0.12; Call = inactive
EGFEM1P #3: mean z-score = 1.59; z-score, replicate A = 1.87; z-score, replicate B = 1.54; z-score, replicate C = 1.37; Call = inactive
RAPGEF3: mean z-score = 0.19; z-score, replicate A = 0.41; z-score, replicate B = 0.12; z-score, replicate C = 0.04; Call = inactive
PANX2: mean z-score = 0.23; z-score, replicate A = 0.03; z-score, replicate B = 0.13; z-score, replicate C = 0.54; Call = inactive
TOX4: mean z-score = 0.38; z-score, replicate A = 0.27; z-score, replicate B = 0.56; z-score, replicate C = 0.31; Call = inactive
TRPC6: mean z-score = -0.85; z-score, replicate A = -0.94; z-score, replicate B = -0.7; z-score, replicate C = -0.9; Call = inactive
KRTAP19-3: mean z-score = -1; z-score, replicate A = -0.75; z-score, replicate B = -1.32; z-score, replicate C = -0.93; Call = inactive
WFDC5: mean z-score = 0; z-score, replicate A = -0.05; z-score, replicate B = 0.19; z-score, replicate C = -0.14; Call = inactive
GPATCH11P1: mean z-score = 0.49; z-score, replicate A = 0.47; z-score, replicate B = 0.66; z-score, replicate C = 0.33; Call = inactive
AHR: mean z-score = -0.02; z-score, replicate A = -0.05; z-score, replicate B = 0.07; z-score, replicate C = -0.09; Call = inactive
PLIN1: mean z-score = -0.32; z-score, replicate A = -0.18; z-score, replicate B = -0.22; z-score, replicate C = -0.56; Call = inactive
NANOGNB: mean z-score = 0.53; z-score, replicate A = 0.5; z-score, replicate B = 0.37; z-score, replicate C = 0.71; Call = inactive
LOC145660 (retired record): mean z-score = 0.43; z-score, replicate A = 0.11; z-score, replicate B = 0.74; z-score, replicate C = 0.45; Call = inactive
KBTBD3: mean z-score = -0.26; z-score, replicate A = 0.05; z-score, replicate B = -0.2; z-score, replicate C = -0.63; Call = inactive
MYH14: mean z-score = 0.46; z-score, replicate A = 0.43; z-score, replicate B = 0.26; z-score, replicate C = 0.68; Call = inactive
ABCA9: mean z-score = -0.85; z-score, replicate A = -0.62; z-score, replicate B = -1.01; z-score, replicate C = -0.93; Call = inactive
KLC3: mean z-score = -0.56; z-score, replicate A = -0.38; z-score, replicate B = -0.81; z-score, replicate C = -0.48; Call = inactive
INHBB: mean z-score = -1.44; z-score, replicate A = -1.34; z-score, replicate B = -1.47; z-score, replicate C = -1.52; Call = inactive
MRPL44: mean z-score = -0.42; z-score, replicate A = -0.19; z-score, replicate B = -0.39; z-score, replicate C = -0.67; Call = inactive

Part of the list above, reduced to “mean z-score”:
EGFEM1P #2	-0.08
EGFEM1P #3	1.59
RAPGEF3	0.19
